Data on 21 molecules can be found in article PMC6278315, “Microwave-Assisted Expeditious Synthesis of 2-Alkyl-2-(N-arylsulfonylindol-3-yl)-3-N-acyl-5-aryl-1,3,4-oxadiazolines Catalyzed by HgCl2 under Solvent-Free Conditions as Potential Anti-HIV-1 Agents” (Molecules, 2018).

Some results are limits rather than exact numbers.

For the data set, the system named is HIV-1IIIB. Kind of data set: Syncytia assay (anti-HIV-1 activity). Format: cell-based. Conditions: for TI (in vitro therapeutic index): CC50 value/EC50 value. Here is the method: Cell line (C8166) and the laboratory-derived virus (HIV-1IIIB) were obtained from MRC, AIDS Reagent Project, London, UK. C8166 was maintainedin RPMI-1640 supplemented with 10% heat-inactivated newborn calf serum (Gibco, Grand Island, NY, USA). The cells used in all experiments were in log-phase growth. The 50% HIV-1IIIB tissue culture infectious dose (TCID50) in C8166 cells was determined and calculated by the Reed and Muench method. Virus stocks were stored in small aliquots at −70 °C.
In the presence of 100 μL various concentrations of 2-alkyl-2-(N-arylsulfonylindol-3-yl)-3-N-acyl-5-aryl-1,3,4-oxadiazolines, C8166 cells (4 × 10^5/mL) were infected with virus HIV-1IIIB at a multiplicity of infection (M.O.I) of 0.06. The final volume per well was 200 μL. Control assays were performed without the testing compounds in HIV-1IIIB infected and uninfected cultures. After 3 days of culture, the cytopathic effect (CPE) was measured by counting the number of syncytia. Percentage inhibition of syncytia formation was calculated and 50% effective concentration (EC50) was calculated. AZT (Sigma-Aldrich, St. Louis, MO, USA) was used as a positive control. Therapeutic index (TI) = CC50/EC50.

As to `CC(=O)N1N=C(c2ccccc2)OC1(C)c1cn(S(=O)(=O)c2ccc(Cl)cc2)c2ccc(C#N)cc12` (stereo not drawn) [3a′, 2-Methyl-2-(N-p-chlorobenzenesulfonyl-5-cyanoindol-3-yl)-3-N-acetyl-5-phenyl-1,3,4-oxadiazolines], the “TI (in vitro therapeutic index)” value worked out at 31.22. The “TI value relative to that of 3z” value (TI ratio vs 3z) was “more than 10 times”. Take `CC(=O)N1N=C(c2ccccc2)OC1(C)c1cn(S(=O)(=O)c2ccc(C)cc2)c2ccc([N+](=O)[O-])cc12` (stereo not drawn) [3b′, 2-Methyl-2-(N-p-methylbenzenesulfonyl-5-nitroindol-3-yl)-3-N-acetyl-5-phenyl-1,3,4-oxadiazolines]: the “TI (in vitro therapeutic index)” value is on record as 13.94. Still for that read-out and setting: then `CC(=O)N1N=C(c2ccccc2)OC1(C)c1cn(S(=O)(=O)c2ccc(Cl)cc2)c2ccc([N+](=O)[O-])cc12` (stereo not drawn) [3c′, 2-Methyl-2-(N-p-chlorobenzenesulfonyl-5-nitroindol-3-yl)-3-N-acetyl-5-phenyl-1,3,4-oxadiazolines], with 8.89; and `CCC1(c2cn(S(=O)(=O)c3ccccc3)c3ccccc23)OC(c2ccccc2)=NN1C(C)=O` (stereo not drawn) [3d′, 2-Ethyl-2-(N-benzenesulfonylindol-3-yl)-3-N-acetyl-5-phenyl-1,3,4-oxadiazolines], with 5.18. On the same count and under the same terms, the value for `CC(=O)N1N=C(c2ccccc2)OC1c1cn(S(=O)(=O)c2ccc(C)cc2)c2ccccc12` (stereo not drawn) [3e′] was 0.97. In the case of `CC(=O)N1N=C(c2ccccc2)OC1c1cn(S(=O)(=O)c2cccc([N+](=O)[O-])c2)c2ccccc12` (stereo not drawn) [3f′], the “TI (in vitro therapeutic index)” value is 24.27. Further, the “TI value relative to that of 3k′” value (TI ratio vs 3k′) is reported as “more than 28 times”. The “TI value relative to that of 3h′” value (TI ratio vs 3h′) is listed as roughly 18 times. In the case of `CC(=O)N1N=C(c2ccccc2)OC1c1cn(S(=O)(=O)c2ccc(C)cc2)c2cc(C)ccc12` (stereo not drawn) [3g′], the “TI (in vitro therapeutic index)” value was 3.59. In the case of `CC(=O)N1N=C(c2ccccc2)OC1c1cn(S(=O)(=O)c2ccc(Cl)c([N+](=O)[O-])c2)c2ccccc12` (stereo not drawn) [3h′], the “TI (in vitro therapeutic index)” value was found to be 1.36. For the molecule `CC(=O)N1N=C(c2ccccc2)OC1c1cn(S(=O)(=O)c2cccc([N+](=O)[O-])c2)c2cc(C)ccc12` (stereo not drawn) [3i′], the “TI (in vitro therapeutic index)” value is reported as 39.59. The “TI value relative to that of 3j′” value (TI ratio vs 3j′) is roughly 220 times. For the same molecule, the “TI value relative to that of 3l′” value (TI ratio vs 3l′) is “more than 12 times”. Consider `CC(=O)N1N=C(c2ccccc2)OC1c1cn(S(=O)(=O)c2ccc(Cl)c([N+](=O)[O-])c2)c2cc(C)ccc12` (stereo not drawn) [3j′], for which the “TI (in vitro therapeutic index)” value amounted to 0.18. Still for that read-out and setting: then `CC(=O)N1N=C(c2ccccc2)OC1c1cn(S(=O)(=O)c2ccc(Cl)cc2)c2ccccc12` (stereo not drawn) [3k′], with 0.86; and `CC(=O)N1N=C(c2ccccc2)OC1c1cn(S(=O)(=O)c2ccc(Cl)cc2)c2cc(C)ccc12` (stereo not drawn) [3l′], with 3.16. Same read-out and setting: then `COc1ccc(S(=O)(=O)n2cc(C3OC(c4ccccc4)=NN3C(C)=O)c3ccccc32)cc1` (stereo not drawn) [3m′], with 0.55; and `COc1ccc(S(=O)(=O)n2cc(C3OC(c4ccccc4)=NN3C(C)=O)c3ccc(C)cc32)cc1` (stereo not drawn) [3n′], with 0.68. For the molecule `CC(=O)N1N=C(c2ccccc2)OC1c1cn(S(=O)(=O)c2ccc(C)cc2)c2ccc(C#N)cc12` (stereo not drawn) [3o′], the “TI (in vitro therapeutic index)” value amounted to 8.36. Same read-out and setting: the value for `CC(=O)N1N=C(c2ccccc2)OC1c1cn(S(=O)(=O)c2cccc([N+](=O)[O-])c2)c2ccc(C#N)cc12` (stereo not drawn) [3p′] was 2.12.

Consider `CCC(=O)N1N=C(c2ccccc2)OC1c1cn(S(=O)(=O)c2ccc(C)cc2)c2ccccc12` (stereo not drawn) [3q′], for which the “TI (in vitro therapeutic index)” value amounted to 26.01. In addition, the “TI value relative to that of 3e′” value (TI ratio vs 3e′) was roughly 27 times. For `CCC(=O)N1N=C(c2ccccc2)OC1c1cn(S(=O)(=O)c2ccc(C)cc2)c2ccc(C#N)cc12` (stereo not drawn) [3r′], the “TI (in vitro therapeutic index)” value came to 24.51.

Consider `CC(=O)N1N=C(c2ccccc2)OC1(C)c1cn(S(=O)(=O)c2ccccc2)c2cc(C)ccc12` (stereo not drawn) [3y, 2-Methyl-2-(N-benzenesulfonyl-6-methylindol-3-yl)-3-N-acetyl-5-phenyl-1,3,4-oxadiazolines], for which the “TI (in vitro therapeutic index)” value is greater than 32.68. The same measure, in the same setting: then `CC(=O)N1N=C(c2ccccc2)OC1(C)c1cn(S(=O)(=O)c2ccccc2)c2ccc(C#N)cc12` (stereo not drawn) [3z, 2-Methyl-2-(N-benzenesulfonyl-5-cyanoindol-3-yl)-3-N-acetyl-5-phenyl-1,3,4-oxadiazolines], with 3.01.

As for `Cc1cn([C@H]2C[C@H](N=[N+]=[N-])[C@@H](CO)O2)c(=O)[nH]c1=O` [AZT, 3′-azido-3′-deoxythymidine, reference compound], the “TI (in vitro therapeutic index)” value is listed as 690,035.
